Primary screen of a compound library

Measurements from “University of Dundee, Small-Polar-MMV Screening Library” (2021), ChEMBL document CHEMBL3988442.

Each number is a percent effect as filed. The record does not define 0% and 100%; most values in the screen are far below 50% and negative numbers occur (in some assays of this library far below -100). Many other results are left out here, so strong results are more common than in the screen.

Mtb glucose medium: 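Growth of Mycobacterium tuberculosis over 3 days (7H9 medium with glucose and tyloxapol); the read-out is not stated. Tested at 500 µM. The record gives no direction; compounds that gave an IC50 in retests scored well above the rest, so higher reads as more growth inhibition. Size under these conditions: about 18,000 compounds, about 1,400 of them at 50% or above in at least one test.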
Mtb cholesterol medium: 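Whole-cell growth test on Mycobacterium tuberculosis, read after 4 days in a medium based on cholesterol and the lipid DPPC; the read-out is not stated. Tested at 500 µM. Higher reads as more growth inhibition (inferred: compounds with an IC50 in retests scored well above the rest). About 18,000 compounds were tested under these conditions; 5% (about 900) showed 50% or more at least once.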

{"compound": "CC1(C)CS(=O)(=O)CCN1Cc1ccc(Cl)cc1F", "Mtb cholesterol medium": -2.13}
{"compound": "Cc1csc(C(=O)N2CC[C@H](O)C2)c1I", "Mtb glucose medium": 37.73}
{"compound": "O=S1(=O)CCN(c2ccnc3cc(Cl)ccc23)CC1", "Mtb glucose medium": -7.6}
{"compound": "CC(C)C1c2nccn2CCCN1C(=O)c1cnco1", "stereo": "centres unmarked", "Mtb glucose medium": 2.747}
{"compound": "CC(C)NC(=O)CN(C)CC(=O)NC1(C#N)CCCC1", "Mtb cholesterol medium": -9.349}
{"compound": "O=C(c1cccc2cc[nH]c12)N1CCSCC1", "Mtb glucose medium": 53.06, "Mtb cholesterol medium": 6.704}
{"compound": "NC1CCCc2occc21", "stereo": "centres unmarked", "Mtb glucose medium": 63.68, "Mtb cholesterol medium": 53.47}
{"compound": "CC(O)(CC#N)c1ccccc1", "stereo": "centres unmarked", "Mtb cholesterol medium": -0.2067}
{"compound": "C[C@@H](CO)Nc1ncc(Cl)cc1Br", "Mtb glucose medium": 56.89, "Mtb cholesterol medium": 58.35}
{"compound": "N#Cc1ccccc1CN1CCCC1CO", "stereo": "centres unmarked", "Mtb glucose medium": 67.98, "Mtb cholesterol medium": 78.05}
{"compound": "CS(=O)(=O)c1cccc(Cl)c1C(N)=O", "Mtb glucose medium": 4.572}
{"compound": "COC[C@H](O)CNC(C)c1ccc(Cl)s1", "stereo": "some centres unmarked", "Mtb glucose medium": 4.635, "Mtb cholesterol medium": -7.179}
{"compound": "Cc1nc(=N)c(C)c(C)[nH]1", "Mtb cholesterol medium": -3.207}
{"compound": "OCCNCCNCc1ccc(-c2cccc(Cl)c2)o1", "Mtb glucose medium": 83.53, "Mtb cholesterol medium": 77.49}
{"compound": "NCCCN1CCN(c2ccccc2)CC1", "Mtb glucose medium": -3.658, "Mtb cholesterol medium": -9.924}
{"compound": "CC(=O)NCCC(=O)N1c2ccccc2CC1C", "stereo": "centres unmarked", "Mtb glucose medium": -6.434}
{"compound": "NS(=O)(=O)c1ccc(NC(=O)c2ccccc2O)cc1", "Mtb glucose medium": 36.47}
{"compound": "Cc1csc(NC(=O)NCC2(O)CCN(C)CC2)n1", "Mtb cholesterol medium": 0.9218}
{"compound": "CCN1C(=O)CC(NCc2ccc3c(c2)OCO3)C1=O", "stereo": "centres unmarked", "Mtb glucose medium": 12.73}
{"compound": "Oc1cccc(CNc2cccnc2-n2cccn2)c1", "Mtb glucose medium": 83.78, "Mtb cholesterol medium": 82.59}
{"compound": "NC(=O)CN1CCCN(Cc2ccccc2)CC1", "Mtb glucose medium": -0.7916}
{"compound": "CC(C)c1ccnc(N2CCNCC2)n1", "Mtb glucose medium": 30.46}
{"compound": "CCn1ccc(C(=O)NCCc2noc(COC)n2)n1", "Mtb cholesterol medium": 6.831}
{"compound": "CN1CCC(C2CCN(Cc3cccnc3)C2)CC1", "stereo": "centres unmarked", "Mtb glucose medium": -2.832}
{"compound": "CCC(CC)(CNC(=O)Cc1cc(C)on1)S(C)(=O)=O", "Mtb glucose medium": -8.299}
{"compound": "COCc1csc(CN)c1", "Mtb glucose medium": 7.143}
{"compound": "N[C@@H]1CC[C@@H]1NS(=O)(=O)Cc1ccccc1", "Mtb glucose medium": 28.2}